Experimental data reported in US7432260B2, “Pyrimidine compounds” (Cyclacel Limted, priority 2002, dated 2008).

Each compound was assayed on HIV-1 (clinical paediatric strain RoJo or WeJo) in human PBMCs (assay: Anti-HIV efficacy evaluation in fresh human PBMCs). Details: therapeutic index: TC50/IC50.
Assay type: cell-based
Description: Representative compounds of the present invention were tested for antiviral activity against HIV-1 in human peripheral blood mononuclear cells (PBMCs) using the clinical paediatric HIV strain RoJo or WeJo. PBMCs were cultured under conditions which promote cell survival and HIV replication. Antiviral activity was tested for from 6-9 log10 serial dilutions of a 100 μM compound stock solution in DMSO.
Fresh PBMCs, seronegative for HIV and HBV, were isolated from screened donors (Interstate Blood Bank, Inc. Memphis, Term.). Cells were pelleted/washed 2-3 times by low speed centrifugation and re-suspension in PBS to remove contaminating platelets. […] Banded PBMCs were gently aspirated from the resulting interface and subsequently washed with PBS by low speed centrifugation. After the final wash, cells were enumerated by trypan blue exclusion and re-suspended in RPMI 1640 supplemented with fetal bovine serum (FBS), and L-glutamine, Phytohemagglutinin (PHA-P, Sigma). The cells were allowed to incubate at 37° C. After incubation, PBMCs were centrifuged and resuspended in RPMI 1640 with FBS, L-glutamine, penicillin, streptomycin, gentamycin, and recombinant human IL-2 (R&D Systems, Inc). IL-2 is included in the culture medium to maintain the cell division initiated by the PHA mitogenic stimulation. PBMCs were maintained in this with bi-weekly medium changes until used in the assay protocol. Cells were kept in culture for a maximum of two weeks before being deemed too old for use in assays and discarded. Monocytes were depleted from the culture as the result of adherence to the tissue culture flask.
For the standard PBMC assay, PHA-P stimulated cells from at least two normal donors were pooled, diluted and plated in the interior wells of a 96-well round bottom microplate. Pooling of mononuclear cells from more than one donor was used to minimise the variability observed between individual donors, which results from quantitative and qualitative differences in HIV infection and overall response to the PHA and IL-2 of primary lymphocyte populations. Each plate contained virus/cell control wells (cells plus virus), experimental wells (drug plus cells plus virus) and compound control wells (drug plus media […], necessary for MTS monitoring of cytotoxicity). Since HIV-1 is not cytopathic to PBMCs, this allows the use of the same assay plate for both antiviral activity and cytotoxicity measurements. Test drug dilutions were prepared in microtiter tubes and each concentration was placed in appropriate wells using the standard format. A predetermined dilution of virus stock was placed in each test well (final MOI≅0.1). The PBMC cultures were maintained for seven days following infection at 37° C., 5% CO2. After this period, cell-free supernatant samples were collected for analysis of reverse transcriptase activity and/or HIV p24 content. Following removal of supernatant samples, compound cytotoxicity was measured by addition of MTS to the plates for determination of cell viability. Wells were also examined microscopically and any abnormalities were noted.
Reverse transcriptase activity assay: A microtiter plate-based reverse transcriptase (RT) reaction was utilised (Buckheit et al., AIDS Research and Human Retroviruses 7:295-302, 1991). Tritiated thymidine triphosphate (^3H-TTP, 80 Ci/mmol, NEN) was received in 1:1 dH2O:Ethanol at 1 mCi/mL. Poly rA:oligo dT template:primer (Pharmacia) was prepared as a stock solution, followed by aliquoting and storage at −20° C. […]
In the case of `Cc1nc(N)sc1-c1ccnc(Nc2ccc(N3CCOCC3)cc2)n1` [Compound 1, [4-(2-Amino-4-methyl-thiazol-5-yl)-pyrimidin-2-yl]-(4-morpholin-4-yl-phenyl)-amine], the TI is reported as 4.6. `Cc1nc(C)c(-c2ccnc(Nc3ccc(NC(=O)CN4CCCC4)cc3)n2)s1` [Compound 53, N-{4-[4-(2,4-Dimethyl-thiazol-5-yl)-pyrimidin-2-ylamino]-phenyl}-2-pyrrolidin-1-yl-acetamide] gave a TI of 1.9. Work on `CCNc1nc(C)c(-c2ccnc(Nc3ccc(N4CCOCC4)cc3)n2)s1` [Compound 4, [4-(2-Ethylamino-4-methyl-thiazol-5-yl)-pyrimidin-2-yl]-(4-morpholin-4-yl-phenyl)-amine] yielded a TI of 57. In the case of `CNc1nc(C)c(-c2ccnc(Nc3ccc(N4CCOCC4)cc3)n2)s1` [Compound 3, [4-(2-N-Methylamino-4-methyl-thiazol-5-yl)-pyrimidin-2-yl]-(4-morpholinophenyl)-amine], the TI is reported as over 337. `Cc1nc(NC(=O)[C@H](N)[C@@H](C)O)sc1-c1ccnc(Nc2cccc([N+](=O)[O-])c2)n1` [Compound 15, (2R,3R)-2-Amino-3-hydroxy-N-{4-methyl-5-[2-(3-nitro-phenylamino)-pyrimidin-4-yl]-thiazol-2-yl}-butyramide] was tested, and the TI was 20.
